Pooled drug test results. Numbers come from NIAID ChemDB, via PubChem.

Shared fields: whole-cell or culture tests; organism: Candida albicans; endpoint: zone

Conditions beyond the fields shown may differ between rows. Zone: diameter of growth inhibition. Blank or dashed fields: not listed here.

structure	dose	method	strain or isolate	value
COC(=O)N[C@H](C(=O)NN(CC[C@@]1(Cc2ccccc2)C(=O)N(C2c3ccccc3C[C@H]2O)C[C@H]1O)Cc1ccc(-c2ccncc2)cc1)C(C)(C)C	10 mg/mL	agar diffusion / agar		12.8 mm
N#Cc1c(-c2ccccc2)csc1NC(=O)C1C=NN=C1N	1000 µg/mL	agar diffusion / agar		4 mm
Cc1ccc2c(c1)sc1nc(=O)cc(C(=O)NNc3ccc(Cl)cc3)n12	5000 µg/mL	agar diffusion		4 mm
CSC1=NC(c2ccc(O)cc2)C(C#N)=C(N)N1	100 µg/mL	agar diffusion	MTCC 227	20 mm
C\C1=C/C=C/C=C/C=C/C=C/CC2CC(O)CC(O)(CC(O)CC(O)CC(O)CC(O)CC(O)CC(O)CC(O)/C=C/C(C)C(C(C)C)OC1=O)O2	100 µg/disc	agar diffusion		15 mm
CCC(C)CCCCCCCCCCC(=O)N[C@H]1C[C@@H](O)[C@@H](NCCN2CCOCC2)NC(=O)C2[C@@H](O)[C@@H](C)CN2C(=O)C(CO)NC(=O)C([C@H](O)C(O)c2ccc(O)cc2)NC(=O)NC(=O)[C@@H]2C[C@@H](O)CN2C(=O)[C@H]([C@@H](C)O)NC1=O	2 mg/mL	agar	IV	13 mm
N#Cc1c(-c2ccc(Cl)cc2)csc1N	1000 µg/mL	agar diffusion / agar		2.6 mm
COc1ccc(C2N=C(SC)NC(N)=C2C#N)cc1	100 µg/mL	agar diffusion	MTCC 227	20 mm
COc1ccc(-c2cc(C(F)(F)F)c3c(-c4ccc(Cl)cc4)nn(-c4ccc(S(N)(=O)=O)cc4)c3n2)cc1	4000 µg/mL	agar diffusion / agar	MTCC 227	0 mm
O=C1CSC(c2ccc([N+](=O)[O-])cc2)N1Nc1nc2ccccc2n2nnnc12	100 µg/mL	agar diffusion	ATCC 2091	13 mm
C#Cc1c(-c2ccc(Cl)cc2)c(C#N)c2nc(=O)c3c(-c4ccc(Cl)cc4)csc3n2c1N	1000 µg/mL	agar diffusion / agar		0 mm
CN1C(=O)/C(=c2/[nH][nH]c(=O)/c2=C\c2ccc(N)cc2)C(=O)c2ccccc21	1 mg/mL	agar diffusion	ATCC 10231	0 mm
O=C1CSC(c2ccccc2)N1Nc1nc2ccccc2n2nnnc12	100 µg/mL	agar diffusion	ATCC 2091	9 mm
Cc1ccc2c(c1)C1(C(=O)N2CCCCCCN2C(=O)C3(SCC(=O)N3c3c(C)n(C)n(-c4ccccc4)c3=O)c3ccccc32)c2c(C)nn(-c3ccccc3)c2Oc2c1c(C)nn2-c1ccccc1	100 µg/mL	agar diffusion	MTCC 227	18 mm
O=C1CSC(c2ccc(F)cc2)N1Nc1nc2ccccc2n2nnnc12	100 µg/mL	agar diffusion	ATCC 2091	11 mm
CCC(C)CCCCCCCCCCC(=O)N[C@H]1C[C@@H](O)[C@@H](Sc2ccccc2)NC(=O)C2[C@@H](O)[C@@H](C)CN2C(=O)C(CO)NC(=O)C([C@H](O)C(Sc2ccccc2)c2ccc(O)cc2)NC(=O)NC(=O)[C@@H]2C[C@@H](O)CN2C(=O)[C@H]([C@@H](C)O)NC1=O	5 mg/mL	agar	IV	18 mm
CS(=O)(=O)c1nc(N)c(C#N)c(-c2cccc([N+](=O)[O-])c2)n1	25 µg/mL	agar diffusion	MTCC 227	16 mm
O=C1C(Cl)C(c2ccccc2F)N1Nc1nc2ccccc2n2nnnc12	50 µg/mL	agar diffusion	ATCC 2091	8 mm
CSC1=NC(/C=C/c2ccccc2)C(C#N)=C(N)N1	50 µg/mL	agar diffusion	MTCC 227	18 mm
NS(=O)(=O)c1ccc(-n2nc(-c3ccc(Cl)cc3)c3c(C(F)(F)F)cc(-c4ccc(-c5ccc6ccccc6c5)cc4)nc32)cc1	4000 µg/mL	agar diffusion / agar	MTCC 227	0 mm
Cc1ccc(NC2=C(C#N)C(c3ccccc3)N=C3SC(S(N)(=O)=O)=NN32)cc1	5000 µg/mL	agar diffusion		4 mm
Cc1ccc2c(c1)C1(C(=O)N2CCCCCCN2C(=O)C3(SCC(=O)N3c3c(C)n(C)n(-c4ccccc4)c3=O)c3cc(F)ccc32)c2c(C)nn(-c3ccccc3)c2Oc2c1c(C)nn2-c1ccccc1	100 µg/mL	agar diffusion	MTCC 227	18 mm
COc1ccc(-c2nc3ccccc3c(=O)n2-c2ccc(NS(=O)(=O)C3C(=O)ONN3c3ccc(C)cc3)cc2)cc1[N+](=O)[O-]	250 µg/mL	agar diffusion	MTCC 227	22 mm
O=C(NN=C1CCCCC1)c1snnc1C(F)(F)F	100 µg/mL	agar diffusion / agar	MTCC 227	0 mm
Cc1ccc(N=c2cc(N)nc3sc(S(N)(=O)=O)nn23)cc1	5000 µg/mL	agar diffusion		6 mm
O=C1CSC(c2ccccc2Cl)N1Nc1nc2ccccc2n2nnnc12	50 µg/mL	agar diffusion	ATCC 2091	10 mm
COc1cccc(/C=C/C(=O)c2ccc(C(=O)/C=C/c3cccc(OC)c3)cc2)c1	400 µg/mL	agar diffusion / agar	ATCC 10231	0 mm
COc1ccc(C2C(Cl)C(=O)N2Nc2nc3ccccc3n3nnnc23)cc1	100 µg/mL	agar diffusion	ATCC 2091	11 mm
COC1=CC(=O)C[C@@H](C)[C@]12Oc1c(Cl)c(OC)cc(OC)c1C2=O	250 µg/mL	agar diffusion	MTCC 227	24 mm
COC(=O)N[C@H](C(=O)NN(CCC[C@@]1(Cc2ccccc2)C(=O)N(C2c3ccccc3C[C@H]2O)C[C@H]1O)Cc1ccc(Br)cc1)C(C)(C)C	10 mg/mL	agar diffusion / agar		12.8 mm
CCOc1ccc2nc(NS(=O)(=O)C3C(=O)ONN3c3ccc(C)cc3)sc2c1	250 µg/mL	agar diffusion	MTCC 227	19 mm
CC1(C)C=C2N=C3SC(S(N)(=O)=O)=NN3C=C2C(=O)C1	5000 µg/mL	agar diffusion		3 mm
CC(=NNC(=O)c1snnc1C(F)(F)F)c1ccccn1	150 µg/mL	agar diffusion / agar	MTCC 227	0 mm
CCC(C)CCCCCCCCCCC(=O)N[C@H]1C[C@@H](O)[C@@H](SCC(=O)OC)NC(=O)C2[C@@H](O)[C@@H](C)CN2C(=O)C(CO)NC(=O)C([C@H](O)C(SCC(=O)OC)c2ccc(O)cc2)NC(=O)NC(=O)[C@@H]2C[C@@H](O)CN2C(=O)[C@H]([C@@H](C)O)NC1=O	5 mg/mL	agar	IV	19 mm
COc1ccc(C2C(C#N)=C(N)N=C3Sc4cc(C)ccc4N32)cc1OC	5000 µg/mL	agar diffusion		15 mm
Cc1ccc(-c2nn(-c3ccc(S(N)(=O)=O)cc3)c3nc(-c4ccc(-c5ccsc5)cc4)cc(C(F)(F)F)c23)cc1	4000 µg/mL	agar diffusion / agar	MTCC 227	0 mm
O=C1C(Cl)C(c2ccc([N+](=O)[O-])cc2)N1Nc1nc2ccccc2n2nnnc12	100 µg/mL	agar diffusion	ATCC 2091	13 mm
COc1ccc(C2N=C3SC(S(N)(=O)=O)=NN3C(Nc3ccc(C)cc3)=C2C#N)cc1OC	5000 µg/mL	agar diffusion		5 mm
CC(=NNC(=O)c1snnc1C(F)(F)F)c1ccccc1	100 µg/mL	agar diffusion / agar	MTCC 227	0 mm
N#Cc1c(-c2ccccc2)csc1N	1000 µg/mL			18 mm
Cc1ccc(/C=c2\c(=O)[nH][nH]\c2=C2/C(=O)c3ccccc3N(C)C2=O)cc1	1 mg/mL	agar diffusion	ATCC 10231	6 mm
CCC(C)CCCCCCCCCCC(=O)N[C@H]1C[C@@H](O)[C@@H](OC)NC(=O)C2[C@@H](O)[C@@H](C)CN2C(=O)C(CO)NC(=O)C([C@H](O)C(OC)c2ccc(O)cc2)NC(=O)NC(=O)[C@@H]2C[C@@H](O)CN2C(=O)[C@H]([C@@H](C)O)NC1=O	5 mg/mL	agar	IV	20 mm
CCCCOc1ccc(-c2csc(NS(=O)(=O)C3C(=O)ONN3c3ccc(C)cc3)n2)cc1	250 µg/mL	agar diffusion	MTCC 227	23 mm
Cn1c(=O)c(-c2[nH][nH]c(=O)c2/C=N/c2cscn2)c(O)c2ccccc21	1 mg/mL	agar diffusion	ATCC 10231	14 mm
O=C1C(Cl)C(c2ccccc2Cl)N1Nc1nc2ccccc2n2nnnc12	50 µg/mL	agar diffusion	ATCC 2091	9 mm
O=C(/C=C/c1cccc(Br)c1)c1ccc(C(=O)/C=C/c2cccc(Br)c2)cc1	400 µg/mL	agar diffusion / agar	ATCC 10231	0 mm
Cc1c(N2C(=O)CSC23C(=O)N(CCCCCCBr)c2ccccc23)c(=O)n(-c2ccccc2)n1C	100 µg/mL	agar diffusion	MTCC 227	16 mm
Cc1ccc(-c2csc(NS(=O)(=O)C3C(=O)ONN3c3ccc(C)cc3)n2)cc1	250 µg/mL	agar diffusion	MTCC 227	17 mm
CSCC[C@H]1NC(=O)[C@H]2CCCN2C1=O	64 µg/mL	agar diffusion / agar	MTCC 277	18 mm
CCC(C)CCCCCCCCCCC(=O)N[C@H]1C[C@@H](O)[C@@H](SCC(=O)OC)NC(=O)C2[C@@H](O)[C@@H](C)CN2C(=O)C(CO)NC(=O)C([C@H](O)C(O)c2ccc(O)cc2)NC(=O)NC(=O)[C@@H]2C[C@@H](O)CN2C(=O)[C@H]([C@@H](C)O)NC1=O	5 mg/mL	agar	IV	26 mm
Cc1ccc(N2NOC(=O)C2S(=O)(=O)Nc2nc3ccc([N+](=O)[O-])cc3s2)cc1	250 µg/mL	agar diffusion	MTCC 227	25 mm
C[C@H]1[C@H](O)[C@@H](C)/C=C/C=C/C=C/C=C/C=C/C=C/C=C/[C@H](O[C@@H]2O[C@H](C)[C@@H](O)[C@H](N)[C@@H]2O)C[C@@H]2O[C@](O)(C[C@@H](O)C[C@@H](O)CC[C@H](O)[C@@H](O)C[C@@H](O)CC(=O)O[C@H]1C)C[C@H](O)[C@H]2C(=O)O	1 mg/mL	agar diffusion	ATCC 10231	20 mm
O=C(NN=Cc1ccc(Br)cc1)c1snnc1C(F)(F)F	100 µg/mL	agar diffusion / agar	MTCC 227	0 mm
Cc1ccc2c(c1)C1(SCC(=O)N1c1c(C)n(C)n(-c3ccccc3)c1=O)C(=O)N2CCCCCCN1C(=O)C2(c3cc(F)ccc31)c1c(C)nn(-c3ccccc3)c1Oc1c2c(C)nn1-c1ccccc1	100 µg/mL	agar diffusion	MTCC 227	19 mm
CCC(C)CCCCCCCCCCC(=O)N[C@H]1C[C@@H](O)[C@@H](O)NC(=O)C2[C@@H](O)[C@@H](C)CN2C(=O)C(CO)NC(=O)C([C@H](O)C(O)c2ccc(O)cc2)NC(=O)NC(=O)[C@@H]2C[C@@H](O)CN2C(=O)[C@H]([C@@H](C)O)NC1=O	2 mg/mL	agar	IV	32 mm
Cn1c(=O)c(-c2[nH][nH]c(=O)c2N=Nc2ccccc2Cl)c(O)c2ccccc21	1 mg/mL	agar diffusion	ATCC 10231	12 mm
COC(=O)N[C@H](C(=O)NN(CC[C@@]1(Cc2ccccc2)C(=O)N(C2c3ccccc3C[C@H]2O)C[C@@H]1O)Cc1ccc(-c2ccccn2)cc1)C(C)(C)C	10 mg/mL	agar diffusion / agar		12.8 mm
Cc1cccc(C2=NC(=O)C(C(=O)Nc3scc(-c4ccccc4)c3C#N)C=C2)n1	1000 µg/mL	agar diffusion / agar		0 mm
CC(=NNC(=O)c1snnc1C(F)(F)F)c1ccc(Br)cc1Br	100 µg/mL	agar diffusion / agar	MTCC 227	11 mm
N#Cc1c(-c2ccc(Cl)cc2)csc1NC(=O)C1C=NN=C1N	1000 µg/mL	agar diffusion / agar		6.6 mm
O=C(NN=C1CCCCCC1)c1snnc1C(F)(F)F	100 µg/mL	agar diffusion / agar	MTCC 227	0 mm
N#Cc1cc(C#N)c2[nH]c(=O)c3c(-c4ccccc4)csc3[n+]2c1N	1000 µg/mL	agar diffusion / agar		2.6 mm
C=C[C@]1(C)CC[C@@H](O)[C@](C)(CCC=C(C)C)O1	20000 µg/mL	agar diffusion / agar		9.21 mm
O=C(/C=C/c1cccc([N+](=O)[O-])c1)c1ccc(C(=O)/C=C/c2cccc([N+](=O)[O-])c2)cc1	400 µg/mL	agar diffusion / agar	ATCC 10231	0 mm
O=C1N[C@H](Cc2ccccc2)C(=O)N2CCC[C@H]12	128 µg/mL	agar diffusion / agar	MTCC 277	16 mm

For reference, 4 entries again:

| structure | dose | method | strain or isolate | value |
|---|---|---|---|---|
| COc1ccc(C2N=C(SC)NC(N)=C2C#N)cc1 | 100 µg/mL | agar diffusion | MTCC 227 | 20 mm |
| Cc1ccc2c(c1)C1(C(=O)N2CCCCCCN2C(=O)C3(SCC(=O)N3c3c(C)n(C)n(-c4ccccc4)c3=O)c3cc(F)ccc32)c2c(C)nn(-c3ccccc3)c2Oc2c1c(C)nn2-c1ccccc1 | 100 µg/mL | agar diffusion | MTCC 227 | 18 mm |
| N#Cc1c(-c2ccccc2)csc1N | 1000 µg/mL |  |  | 18 mm |
| Cn1c(=O)c(-c2[nH][nH]c(=O)c2N=Nc2ccccc2Cl)c(O)c2ccccc21 | 1 mg/mL | agar diffusion | ATCC 10231 | 12 mm |